Anti-infective test results gathered from many reports (values: NIAID ChemDB through PubChem).

Percent inhibition refers to the dose given; in toxicity tests it is the harm to the cells.

smiles	agent	cell line	strain or isolate	protein	test	read by	dose	measure	result
CCCCCCCCCCCNc1nnc(NC(=O)c2ccc([N+](=O)[O-])o2)s1	Human cytomegalovirus			Polymerase	target			IC50	<25 µM
COc1ccc(-c2cncc(N3CCN(c4cccc(C(F)(F)F)c4)CC3)n2)cc1OC	Cytomegalovirus			UL97 kinase	target		10 µM	inhibition	>15%
Cc1ncc([N+](=O)[O-])n1CCNC(=O)CCC(=O)NCCCn1ccnc1[N+](=O)[O-]	Mycobacterium tuberculosis		H37Rv		culture	resazurin	6.25 µg/mL	inhibition	4%
O=C(Nc1nnc(NC2CCCCCC2)s1)c1ccc([N+](=O)[O-])o1	Human cytomegalovirus			Polymerase	target			IC50	<25 µM
Cc1ccc(C(=O)O)cc1-n1c(-c2ccc(Cl)cc2)nnc1-c1ccc([N+](=O)[O-])cc1	Mycobacterium tuberculosis		H37Rv		culture			MIC	>100 µg/mL
O=C(Nc1nnc(NC2CCCCCC2)s1)c1cc2ccccc2s1	Human cytomegalovirus			Polymerase	target			IC50	>25 µM
COc1cccc2c1C(=O)c1c(O)c3c(c(O)c1C2=O)C[C@@](O)(/C(C)=N/NC(=O)c1ccc(Cl)cc1)C[C@H]3O[C@H]1C[C@H](N)[C@H](O)[C@H](C)O1	Mycobacterium tuberculosis		TAC-R		culture			MIC	6.3 µg/mL
COc1ccc(Cl)cc1-c1cncc(N2CCN(c3ccccc3)CC2)n1	Cytomegalovirus			UL97 kinase	target		10 µM	inhibition	>15%
CCN1C(=O)CCC1=O	Mycobacterium tuberculosis		H37Rv		culture			MIC	>100 µg/mL
CC(=O)c1ccc(-c2cncc(N3CCN(c4ccccc4F)CC3)n2)cc1	Cytomegalovirus			UL97 kinase	target			IC50	<10 µM
CC(=O)N1c2ccccc2S(=O)(=O)c2c1ccc1ccccc21	Mycobacterium tuberculosis		H37Rv		culture	BACTEC		MIC	>12.5 µg/mL
CCOC(=O)c1sc(N)nc1C	Mycobacterium tuberculosis		H37Rv		culture			MIC	>100 µg/mL
CC1(C)NN=C2C(=CC=C3NNC(C)(C)N32)n2cccc21.Cl.Cl	Mycobacterium tuberculosis		H37Rv		culture	BACTEC		MIC bound	>12.5 µg/mL
O=C(O)c1cc(O)cc(O)c1	Mycobacterium tuberculosis		H37Rv		culture			MIC	>100 µg/mL
CCOc1ccc2ccccc2c1C(=O)Nc1nnc(NCc2ccc(S(N)(=O)=O)cc2)s1	Human cytomegalovirus			Polymerase	target			IC50	<25 µM
Nc1ccc(S(=O)(=O)Nc2ccccc2)cc1N	Mycobacterium tuberculosis		H37Rv		culture			MIC	>100 µg/mL
CCOC(=O)C1=C(Nc2ccc(F)cc2)C(=O)N(CC)C1	Mycobacterium tuberculosis		H37Rv		culture	BACTEC	12.8 µg/mL	inhibition	11%
N#CCCNc1nnc(NC(=O)c2c(Cl)cccc2Cl)s1	Human cytomegalovirus			Polymerase	target			IC50	<25 µM
CC(=O)Nc1c(Cl)c(Cl)c2[nH]c(=O)c3cc(Cl)ccc3c2c1Cl	Mycobacterium tuberculosis		H37Rv		culture	BACTEC		MIC bound	>12.5 µg/mL
C#CC[C@@H](C(=O)N[C@H](/C=C/C(=O)OCC)C[C@@H]1CCNC1=O)n1cccc(NC(=O)c2cc(C)on2)c1=O	Rhinovirus	H1-HELA	Serotype 59		culture	cytopathic effect / XTT		EC50	0.016 µM
CN(CCO)c1ccccc1	Mycobacterium tuberculosis		H37Rv		culture			MIC	100 µg/mL
CNc1nc(C(N)=O)c(N)s1	Mycobacterium tuberculosis		H37Rv		culture	BACTEC		MIC bound	>12.5 µg/mL
O=C(/C=C/c1ccccc1)Nc1nnc(NCc2ccncc2)s1	Human cytomegalovirus			Polymerase	target			IC50	<25 µM
O=[N+]([O-])c1ccc2cn[nH]c2c1	Mycobacterium tuberculosis		H37Rv		culture			MIC	100 µg/mL
Cc1ccc2nnc(NS(=O)(=O)c3cc(C)c(Cl)cc3S)n2n1	Mycobacterium tuberculosis		H37Rv		culture	BACTEC		MIC bound	>12.5 µg/mL
O=C(SSC(=O)c1ccc(C(=O)c2ccccc2)cc1)c1ccc(C(=O)c2ccccc2)cc1	Mycobacterium tuberculosis		H37Rv		culture			MIC	>100 µg/mL
COc1ccc(N2CCN(c3cncc(-c4ccc5ccccc5c4)n3)CC2)cc1OC	Cytomegalovirus			UL97 kinase	target			IC50	<1 µM
CCCOC(=O)c1ccc(O)cc1	Mycobacterium tuberculosis		H37Rv		culture			MIC	12.5 µg/mL
O=C(CNC(=O)NCc1ccco1)NNC(=O)Nc1ccc(F)c(Cl)c1	Mycobacterium tuberculosis		H37Rv		culture	BACTEC	12.5 µg/mL	inhibition	42%
Clc1ccc(N2CCN(c3cncc(-c4ccc5ccccc5c4)n3)CC2)cc1	Cytomegalovirus			UL97 kinase	target		1 µM	inhibition	<50%
Nc1ccc(Sc2ccc(N)cc2)cc1	Mycobacterium tuberculosis		H37Rv		culture			MIC	100 µg/mL
CCO/N=C/c1ccc(OCCC2CCN(c3ccc(C)nn3)CC2)cc1	Rhinovirus	KB	56822 (ICAM-1 receptor group 42)		culture	neutral red		EC50	0.136 µM
CC(=O)c1ccccc1-c1cncc(N2CCN(c3cccc(C(F)(F)F)c3)CC2)n1	Cytomegalovirus			UL97 kinase	target		10 µM	inhibition	>15%
COC(=O)C1=C(C(=O)OC)P2(C)(C)N(C)C(=S)N2C1(c1ccccc1)c1ccccc1	Mycobacterium tuberculosis		H37Rv		culture	BACTEC		MIC bound	>12.5 µg/mL
CCC(O)CC(C)O	Mycobacterium tuberculosis		H37Rv		culture			MIC	>100 µg/mL
COc1cc(C=Nc2ccc(C)c(Cl)c2)ccc1OC(=O)c1ccccc1	Mycobacterium tuberculosis		H37Rv		culture	BACTEC	12.5 µg/mL	inhibition	0%
O=S(=O)(O)c1ccc(O)c2ncccc12	Mycobacterium tuberculosis		H37Rv		culture			MIC	>100 µg/mL
O=C(Nc1ccc(Cl)cc1)Nc1nnc2nc(CC(=O)c3ccccc3)c(=O)[nH]n12	Mycobacterium tuberculosis		H37Rv		culture	BACTEC		MIC bound	>12.5 µg/mL
Fc1ccc(N2CCCCC2)c(NC(=S)c2ccncc2)c1				isolate K5	host protein	kinase activity	10 µM	inhibition	11%
COc1ccc(CCNC(=O)Cc2cc(OC)c(OC)cc2CO)cc1OC	Mycobacterium tuberculosis		H37Rv		culture	resazurin	6.25 µg/mL	inhibition	3%
Cl.ClCCCC1CCCCN1	Mycobacterium tuberculosis		H37Rv		culture			MIC	>100 µg/mL
Cc1ccccc1C1OC(=O)c2ccc3ccccc3c21	Mycobacterium tuberculosis		H37Rv		culture	BACTEC	12.5 µg/mL	inhibition	12%
C=CCNc1nc(NCC=C)nc(OCCCC)n1	Mycobacterium tuberculosis		H37Rv		culture			MIC	100 µg/mL
CCN(CC)c1ccc2c(c1)Oc1ccc(N(C(C)=O)c3ccccc3)cc1C21OC(=O)c2ccccc21	Mycobacterium tuberculosis		H37Rv		culture	resazurin		MIC bound	>6.25 µg/mL
CN(C)C(=S)SC(=S)N(C)C	Mycobacterium tuberculosis		H37Rv		culture			MIC	>100 µg/mL

For reference, 6 entries again:

{"smiles": "CC1(C)NN=C2C(=CC=C3NNC(C)(C)N32)n2cccc21.Cl.Cl", "agent": "Mycobacterium tuberculosis", "strain or isolate": "H37Rv", "test": "culture", "read by": "BACTEC", "measure": "MIC bound", "result": ">12.5 µg/mL"}
{"smiles": "CN(C)C(=S)SC(=S)N(C)C", "agent": "Mycobacterium tuberculosis", "strain or isolate": "H37Rv", "test": "culture", "measure": "MIC", "result": ">100 µg/mL"}
{"smiles": "CCN(CC)c1ccc2c(c1)Oc1ccc(N(C(C)=O)c3ccccc3)cc1C21OC(=O)c2ccccc21", "agent": "Mycobacterium tuberculosis", "strain or isolate": "H37Rv", "test": "culture", "read by": "resazurin", "measure": "MIC bound", "result": ">6.25 µg/mL"}
{"smiles": "CCOc1ccc2ccccc2c1C(=O)Nc1nnc(NCc2ccc(S(N)(=O)=O)cc2)s1", "agent": "Human cytomegalovirus", "protein": "Polymerase", "test": "target", "measure": "IC50", "result": "<25 µM"}
{"smiles": "CCOC(=O)C1=C(Nc2ccc(F)cc2)C(=O)N(CC)C1", "agent": "Mycobacterium tuberculosis", "strain or isolate": "H37Rv", "test": "culture", "read by": "BACTEC", "dose": "12.8 µg/mL", "measure": "inhibition", "result": "11%"}
{"smiles": "Fc1ccc(N2CCCCC2)c(NC(=S)c2ccncc2)c1", "protein": "isolate K5", "test": "host protein", "read by": "kinase activity", "dose": "10 µM", "measure": "inhibition", "result": "11%"}

MIC bound: limit read from a one-dose screen. Conditions beyond the fields shown may differ between rows. An empty or dashed field is not shown. ECn is the concentration giving n% inhibition of infection, replication or growth. ICn is the concentration giving n% inhibition.